Compound potency records, mixed from different reports. Data source: NIAID ChemDB in PubChem.

Common to all: tests in culture; agent: Candida albicans; method: broth dilution; endpoint: MIC80

MIC50, MIC90 and the like: level of inhibition, or share of isolates inhibited. Neighbouring rows are from separate reports.

Cc1cccc(C)c1N1C(=O)C=CC1=O ; strain: ATCC 10231 ; result: 2 µg/mL
O=C(/C=C/c1ccc(Cl)cc1Cl)OC1CCN(CC(O)(Cn2cncn2)c2ccc(F)cc2F)CC1 ; strain: Y0109 ; result: 0.117 µM
O=C1C=CC(=O)N1c1ccccc1 ; strain: ATCC 10231 ; result: 2 µg/mL
Oc1ccc2cc1Oc1ccc(cc1)CCc1ccc(c(O)c1)-c1c(O)cccc1CC2 ; strain: BWP17-DPP3-GFP ; result: 16 µg/mL
O=C1C=CC(=O)N1c1ccc([N+](=O)[O-])cc1 ; strain: ATCC 10231 ; result: 2 µg/mL
O=C(/C=C/c1cccc(Cl)c1)OC1CCN(CC(O)(Cn2cncn2)c2ccc(F)cc2F)CC1 ; strain: Y0109 ; result: 0.124 µM
COc1cc(/C=C/c2ccc(O)cc2)cc(OC)c1 ; strain: SC5314 ; result: 32 µg/mL
O=C(/C=C/c1ccc(Cl)cc1)OC1CCN(CC(O)(Cn2cncn2)c2ccc(F)cc2F)CC1 ; strain: Y0109 ; result: 0.124 µM
CCOC(=O)c1nc(NC(=O)c2nc(NC(=O)c3cc([N+](=O)[O-])cn3C)cn2C)cn1C ; strain: 102 (drug resistant) ; result: >200 µg/mL
C[C@@H]1[C@H](O)[C@@H](C)/C=C/C=C/C=C/C=C/C=C/C=C/C=C/[C@H](O[C@@H]2O[C@H](C)[C@@H](O)[C@H](N)[C@@H]2O)C[C@@H]2O[C@](O)(C[C@@H](O)C[C@@H](O)[C@H](O)CC[C@@H](O)C[C@@H](O)CC(=O)O[C@H]1C)C[C@H](O)[C@H]2C(=O)O ; strain: ATCC 66396 ; result: 0.125 µg/mL
CC(C)(C)N1C(=O)C=CC1=O ; strain: ATCC 10231 ; result: 2 µg/mL
CC(C)(C)C(=O)OC1CCN(CC(O)(Cn2cncn2)c2ccc(F)cc2F)CC1 ; strain: Y0109 ; result: 0.148 µM
O=C1C=CC(=O)N1C1CCCCC1 ; strain: ATCC 10231 ; result: 1 µg/mL
O=C(/C=C/c1ccc(Br)cc1)OC1CCN(CC(O)(Cn2cncn2)c2ccc(F)cc2F)CC1 ; strain: Y0109 ; result: 0.007 µM
CN1CCN(c2n[nH]c(N3C(=O)CS[C@@H]3c3ccc4c(c3)OCO4)n2)CC1 ; strain: 116.98 ; result: 1.56 µg/mL